Reference: PMC4708017, “Antiplasmodial activity of iron(II) and ruthenium(II) organometallic complexes against Plasmodium falciparum blood parasites” (Memórias do Instituto Oswaldo Cruz, 2015)

Test system: HepG2 human hepatoma cells
Settings: MLD50 HepG2 / IC50 P. falciparum W2
Protocol: The SI was calculated in order to give an insight into the therapeutic index of the molecules, i.e., how far the toxic concentration is from the therapeutic one.

In the case of `CCC(=C(c1ccccc1)c1ccccc1)c1ccccc1` [Compound 1], the “SI (MLD50/IC50)” value is reported as 42.

In the case of `CCC(=C(c1ccc(O)cc1)c1ccc(OCCCN(C)C)cc1)c1ccccc1` [Compound 2], the “SI (MLD50/IC50)” value is reported as “Toxic (Molecules with SI ≤ 10 were also considered toxic)”.
